Measured values from paper PMC12029836, “Phytotoxicity, Cytotoxicity, and Antimicrobial Activity of Triethanolammonium Amino Acids Salts” (Molecules, 2025).

System: S. aureus ATCC 6538
Test: Antimicrobial activity, broth microdilution MIC/MBC
Assay type: cell-based, Staphylococcus aureus
Conditions: S. aureus ATCC 6538, 24 h at 37 °C, at least 90% growth inhibition; nd—not detected

OCCN(CCO)CCO
MIC (%): 6.25%

Only a part of the results on these compounds is given; other tests are left out.
